A mixed list of measured activities; the numbers were collected in NIAID ChemDB.

Common to all: whole-cell or culture tests

Percent inhibition refers to the dose given; in toxicity tests it is the harm to the cells.

{"compound": "CS[C@H]1C=C[C@@H](n2cnc3c(N)ncnc32)C1", "organism": "Measles virus", "cells": "CV-1", "read by": "cytopathic effect", "measure": "EC50", "value": ">100 µg/mL"}
{"compound": "O=S(=O)([O-])c1ccc(O)cc1", "organism": "Adenovirus", "strain": "TYPE 3", "cells": "Human embryonic lung cells", "read by": "cytopathic effect", "measure": "inhibition", "dose": "10 µg/mL", "value": "0%"}
{"compound": "NC(=S)Nc1cccc(OCCCCCOc2cccc3[nH]ccc23)c1", "organism": "Hepatitis C virus", "cells": "Ava5-EG(delta4AB)SEAP", "read by": "reporter gene / fluorescence", "measure": "EC50", "value": "0.001–1 µM"}
{"compound": "Nc1ncnc2c1ncn2[C@@H]1CC[C@@H](O)[C@H]1O", "organism": "Measles virus", "strain": "X-1108", "cells": "CV-1", "read by": "cytopathic effect", "measure": "EC50", "value": ">10 µg/mL"}
{"compound": "NCCS(=O)(=O)O", "organism": "Adenovirus", "strain": "TYPE 3", "cells": "Human embryonic lung cells", "read by": "cytopathic effect", "measure": "inhibition", "dose": "10 µg/mL", "value": "10%"}
{"compound": "CCc1cc(OC)ccc1CNC(=O)c1c2n(c(=O)n1-c1ccc(OC)cc1)CCN(C(=O)c1ccc(Br)c(Cl)c1)C2", "organism": "Hepatitis B virus", "cells": "HepG2.117", "read by": "PCR", "measure": "EC50", "value": "0.1–0.5 µM"}
{"compound": "Nc1ccc(S(=O)(=O)[O-])c2c(S(=O)(=O)[O-])ccc(O)c12", "organism": "Rhinovirus", "cells": "Human embryonic lung cells", "read by": "cytopathic effect", "measure": "inhibition", "dose": "5 µg/mL", "value": "60%"}
{"compound": "CCO/N=C/c1ccc(OCCC2CCN(c3ccc(Cl)nn3)CC2)cc1", "organism": "Rhinovirus", "strain": "Baylor 3 (LDL receptor group 47)", "cells": "KB", "read by": "neutral red", "measure": "EC50", "value": "0.173 µM"}
{"compound": "Nc1nc2c(ncn2COC(CO)CO)c(=O)[nH]1", "organism": "Human cytomegalovirus", "strain": "C8803", "cells": "MRC-5", "read by": "hybridisation", "measure": "EC50", "value": "0.7 µM"}
{"compound": "Cc1cc(C(=O)N2CCn3c(c(C(=O)NCc4ccccc4)n(-c4ccc(OC(C)C)cc4)c3=O)C2)ccc1Br", "organism": "Hepatitis B virus", "cells": "HepG2.117", "read by": "PCR", "measure": "EC50", "value": ">5 µM"}
{"compound": "O=C(Nc1cc(C(F)(F)F)cc(C(F)(F)F)c1)NS(=O)(=O)c1ccc(OC(F)(F)F)cc1", "organism": "Escherichia coli", "strain": "ES142", "measure": "MIC", "value": ">300 µM"}
{"compound": "CN[C@H]1CC[C@@H](c2ccc(Cl)c(Cl)c2)c2ccccc21", "organism": "Cryptococcus neoformans", "strain": "3-10", "read by": "broth dilution", "measure": "MIC90", "value": "3 µg/mL"}
{"compound": "CC(C)N=C(N)c1ccc2nc(-c3ccc4c(c3)Cc3cc(-c5nc6ccc(C(N)=NC(C)C)cc6[nH]5)ccc3-4)[nH]c2c1", "organism": "Candida albicans", "strain": "Isolate 3028 fluconazole-resistant", "measure": "MFC", "value": "1.56 µg/mL"}
{"compound": "O=C(Nc1cccc(C2=NCCN2)c1)Nc1cccc(C(F)(F)F)c1", "organism": "Klebsiella pneumoniae", "strain": "KL21", "measure": "MIC", "value": ">300 µM"}
{"compound": "CCOC(=O)/C=C/[C@H](C[C@@H]1CCNC1=O)NC(=O)[C@@H](CC(=O)[C@@H](NC(=O)c1cc(C)on1)C(C)C)Cc1ccc(F)cc1", "organism": "Rhinovirus", "strain": "Isolate 19", "cells": "OHIO HELA-I", "read by": "cytopathic effect / visual reading", "measure": "EC50", "value": "<0.01 µg/mL"}
{"compound": "C[C@@H](c1ncncc1F)[C@](O)(Cn1cncn1)c1ccc(F)cc1F", "organism": "Cryptococcus gattii", "strain": "CBS 10090", "read by": "broth dilution", "measure": "MIC", "value": "0.5 µg/mL"}
{"compound": "O=C(NCc1ccc(Cl)cc1)c1c[nH]c2ccc(CCCO)cc2c1=O", "organism": "Varicella zoster virus", "strain": "STE", "read by": "plaque count", "measure": "EC50", "value": "0.1 µM"}
{"compound": "O=S(=O)(O)c1cccc2c(O)cccc12", "organism": "Herpes simplex virus", "cells": "Human conjunctiva cells", "read by": "cytopathic effect", "measure": "inhibition", "dose": "5 µg/mL", "value": "0%"}
{"compound": "C[C@H](Oc1ccc(-n2c(C(=O)NCc3ccccc3)c3n(c2=O)CCN(C(=O)c2ccc(Br)c(Cl)c2)C3)cc1)C(F)(F)F", "organism": "Hepatitis B virus", "cells": "HepG2.117", "read by": "PCR", "measure": "EC50", "value": "0.5–5 µM"}
{"compound": "S=C(Nc1ccc2c(c1)Cc1cc(Br)ccc1-2)Nc1cccc2ccccc12", "organism": "Hepatitis C virus", "cells": "Ava5-EG(delta4AB)SEAP", "read by": "reporter gene / fluorescence", "measure": "EC50", "value": "0.001–1 µM"}
{"compound": "Nc1ccc2c(O)cc(S(=O)(=O)[O-])cc2c1S(=O)(=O)[O-]", "organism": "Rhinovirus", "cells": "Human embryonic lung cells", "read by": "cytopathic effect", "measure": "inhibition", "dose": "50 µg/mL", "value": "70%"}
{"compound": "Nc1ncnc2c1ncn2[C@@H]1C[C@H](N)[C@@H](O)[C@H]1O", "organism": "Measles virus", "strain": "TN1994", "cells": "CV-1", "read by": "cytopathic effect", "measure": "EC50", "value": "4 µg/mL"}
{"compound": "O=C(Nc1cc(C(F)(F)F)cc(C(F)(F)F)c1)NN1CCOCC1", "organism": "Klebsiella pneumoniae", "strain": "KL21", "measure": "MIC", "value": ">300 µM"}
{"compound": "COC(=O)N[C@H](C(=O)N1CCCC1c1ncc(-c2ccc(-c3ccc(-c4cnc([C@@H]5CC(C)CN5C(=O)[C@@H](NC(=O)CO)C(C)C)[nH]4)cc3)cc2)[nH]1)C(C)C", "organism": "Hepatitis C virus", "strain": "1b", "mutations": "P32L", "cells": "ET", "read by": "luciferase", "measure": "EC50", "value": "0.0000055 µM"}
{"compound": "NC(=S)Nc1cccc(OCCCCCOc2ccc(-n3cccc3)cc2)c1", "organism": "Hepatitis C virus", "cells": "Ava5-EG(delta4AB)SEAP", "read by": "reporter gene / fluorescence", "measure": "EC50", "value": "0.001–1 µM"}
{"compound": "N#Cc1cc([N+](=O)[O-])ccc1Oc1ccc(Cl)c(Cl)c1", "organism": "Coxsackie virus", "strain": "TYPE A21", "cells": "VERO", "measure": "inhibition", "dose": "0.39 µg/mL", "value": "88%"}
{"compound": "Cc1nc2cc(-n3c(C(=O)NCc4ccccc4)c4n(c3=O)CCN(C(=O)c3ccc(Br)c(Cl)c3)C4)ccc2o1", "organism": "Hepatitis B virus", "cells": "HepG2.117", "read by": "PCR", "measure": "EC50", "value": "0.1–0.5 µM"}
{"compound": "Nc1ncnc2c1ncn2[C@@H]1C=C[C@@H](O)[C@H]1O", "organism": "Measles virus", "strain": "Halonen", "cells": "CV-1", "read by": "cytopathic effect", "measure": "EC50", "value": "<0.1 µg/mL"}
{"compound": "C/C=C/C/C=C/CCC(=O)[C@H]1O[C@H]1C(N)=O", "organism": "Escherichia coli", "strain": "UB1005/PSJ13", "measure": "MIC", "value": "20 µg/mL"}
{"compound": "CC(C)Nc1nc2cc(Cl)c(Cl)cc2n1[C@H]1O[C@@H](CO)[C@H](O)[C@@H]1O", "organism": "Human cytomegalovirus", "strain": "C8301", "cells": "MRC-5", "read by": "hybridisation", "measure": "EC50", "value": "0.04 µM"}
{"compound": "C=CCc1ccc(OC)c(OC)c1", "organism": "Candida albicans", "strain": "3068", "read by": "turbidity", "measure": "MIC90", "value": "345 µg/mL"}
{"compound": "NS(=O)(=O)O", "organism": "Rhinovirus", "cells": "Human embryonic lung cells", "read by": "cytopathic effect", "measure": "inhibition", "dose": "5 µg/mL", "value": "0%"}
{"compound": "NC(=S)Nc1cccc(OCCCCCOc2ccc(F)cc2)c1", "organism": "Hepatitis C virus", "cells": "Ava5-EG(delta4AB)SEAP", "read by": "reporter gene / fluorescence", "measure": "EC50", "value": "0.001–1 µM"}
{"compound": "O=C(CC(=O)Nc1cccc(C(F)(F)F)c1)Nc1cccc(C(F)(F)F)c1", "organism": "Klebsiella pneumoniae", "strain": "KL21", "measure": "MIC", "value": ">300 µM"}
{"compound": "Nc1ncnc2c1ncn2[C@H]1C[C@@H](S)[C@H](O)[C@@H]1O", "organism": "Measles virus", "cells": "CV-1", "read by": "neutral red", "measure": "EC50", "value": ">100 µg/mL"}
{"compound": "Nc1nc2c(ncn2COC(CO)CO)c(=O)[nH]1", "organism": "Human cytomegalovirus", "strain": "VR4760 (ganciclovir-resistant)", "read by": "plaque count", "measure": "EC50", "value": "40 µM"}
{"compound": "CCCCCCCNC(=S)Nc1cccc(OCCCCCc2ccccc2)c1", "organism": "Hepatitis C virus", "cells": "Ava5-EG(delta4AB)SEAP", "read by": "reporter gene / fluorescence", "measure": "EC50", "value": "0.001–1 µM"}
{"compound": "CCC(CC)[C@H](NC(C)=O)[C@@H]1[C@H](O)[C@@H](C(=O)O)C[C@H]1N=C(N)N", "organism": "Influenza A virus", "strain": "Influenza A/Washington/05/96 (H3N2)", "cells": "MDCK", "read by": "visual reading", "measure": "EC50", "value": "0.01 µM"}

a–b is a range or a potency band. A number after MIC or MFC names an inhibition level or a share of isolates. ECn is the concentration giving n% inhibition of infection, replication or growth. Rows are shuffled and stem from different studies.